PubChem BioAssay AID624099 – ICCB-Longwood, 2012
Shown is an unselected part of about 21,000 deposited reagents. In the full data, 497 (2.4%) were called active. 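Higher z means weaker E2 silencing; only reporter increases were scored, and knock-downs that hurt cell survival may mask genuine repressor factors.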

- Aim: 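Host factors E2 relies on to silence an HPV18 LCR reporter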 (primary screen)
- Cells: human C33A cervical carcinoma cells (HPV-negative) stably expressing BPV1 E2 and an HPV18 LCR luciferase reporter
- Knock-down reagent: siRNA pool against human genes, 40 nM
- Timing: 72 h
- Measured: 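Per-well luciferase luminescence, z-scored on each plate against the plate mean and SD with control wells left out, then averaged across three replicate plates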
- Scale: mean z-score and z-score: higher = stronger reporter signal, weaker E2 silencing
- Call rule: 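Hit if mean z-score reaches 2 and two or more of three replicate z-scores also reach 2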

target gene	mean z-score	z-score, replicate A	z-score, replicate B	z-score, replicate C	outcome
HELT	0.4	0.41	0.59	0.19	inactive
PPIP5K2	-1.01	-0.45	-0.71	-1.86	inactive
ARHGDIA	0.44	0.37	0.82	0.14	inactive
LINC01120	0.17	0.4	-0.14	0.23	inactive
LOC400526 (retired record)	1.13	1.12	1.15	1.13	inactive
OSGEPL1	0.26	0	0.47	0.31	inactive
NLGN4Y	0.61	0.39	0.94	0.51	inactive
TTLL4	0.39	0.43	0.29	0.46	inactive
LINC00656	0.27	0.56	0.18	0.07	inactive
NDRG4	1.11	1.26	1.33	0.75	inactive
TEDC1	-0.34	-0.23	-0.59	-0.21	inactive
VRK3	0.34	0.36	0.19	0.47	inactive
TMEM181	-1.15	-0.82	-1.23	-1.4	inactive
NCKAP1L	3.29	3.22	3.21	3.44	active
ZNF100	0.63	0.69	0.81	0.38	inactive
GHRHR	-2.35	-1.75	-2.53	-2.79	inactive
DIAPH1	-0.41	-0.71	0.02	-0.54	inactive
VAMP1	0.1	0.2	0.01	0.1	inactive
RSL1D1	-0.56	-0.83	-0.57	-0.29	inactive
PDE8B	0.04	0.27	-0.12	-0.05	inactive
SSC5D	0.56	0.1	0.41	1.17	inactive
KDM4C	1.3	1.44	1.17	1.28	inactive
DCAF12	0.04	0.2	0.12	-0.2	inactive
SLC25A33	1.05	0.98	1.09	1.09	inactive
MVB12A	0.51	0.37	0.62	0.53	inactive
ZSCAN31	0.16	0.15	0.23	0.11	inactive
STK17B	0.1	0.33	0.16	-0.18	inactive
CCDC170	0.67	0.76	0.54	0.7	inactive
XRCC6	0.13	0.24	0.26	-0.12	inactive
RNF126	-0.04	0.34	-0.22	-0.24	inactive
KHDC1	-0.18	0	-0.18	-0.35	inactive
KIR3DL3	-0.41	-0.35	-0.45	-0.43	inactive
KCND3	-0.23	-0.16	-0.06	-0.45	inactive
DAOA	-2.44	-2.17	-2.72	-2.43	inactive
CCT4	0.49	0.28	0.66	0.52	inactive
DUSP6	2.46	3.17	2.08	2.12	active
CMSS1	0.31	0.19	0.09	0.65	inactive
SFRP1	-0.44	-0.49	-0.5	-0.32	inactive
CSAD	-1.68	-1.4	-1.74	-1.89	inactive
RASGEF1A	0.88	0.8	1.18	0.66	inactive
RSU1	0.57	0.41	0.44	0.85	inactive
COMT	-1.91	-1.3	-2.34	-2.09	inactive
LOC256176 (retired record)	0.12	0.03	0	0.34	inactive
ZNF165	-0.26	-0.4	-0.1	-0.28	inactive
NACC2	1.98	2.09	2.2	1.64	inactive
RBM48	-0.52	-0.61	-0.21	-0.74	inactive
LOC389752 (retired record)	-1.24	-1.67	-0.83	-1.21	inactive
DCAF4	0.36	0.45	0.44	0.18	inactive
LIN52	1.64	1.35	1.78	1.8	inactive
PMEL	-0.49	-0.53	-0.62	-0.32	inactive
SPMIP11	-0.7	-0.57	-0.67	-0.87	inactive
RRBP1	0.57	0.66	0.71	0.35	inactive
DKFZP586K1520 (retired record)	-0.1	-0.42	-0.03	0.14	inactive
PDXDC1	-0.73	-0.32	-1.03	-0.84	inactive
IGF2BP3	0.02	0.03	0.05	-0.03	inactive
RDUR	0.28	0.3	0.09	0.44	inactive
SLC12A9	0.44	0.56	0.46	0.3	inactive

4 entries from above, showing only “z-score, replicate A”:
ZNF165	-0.4
NACC2	2.09
RBM48	-0.61
LOC389752 (retired record)	-1.67
